Here are results for one sequence from publication PMC7385629 (Scientific Reports, 2020).

The series relates to N[C@@H](Cc1ccc(O)cc1)C(=O)O. In words: purified protein. The settings on record: co-substrate sodium pyruvate 100 mM, 30 µM PLP, pH 8, 37 °C, tyrosine 0-7 mM, apparent.

As to CTAT (Leishmania donovani), the Michaelis-Menten constant (Km) (usually the substrate concentration at which the rate is half of its maximum) is 4.581 ± 0.627 mM.
